The target in assay [1] is rBmPYKI (Babesia microti, UniProt A0A1N6LXR4). The assay is described as follows: rBmPYKI inhibition, indirect coupled LDH assay. It is filed as biochemical.
Assay [2] addresses rBmLDH (Babesia microti, UniProt I7J7V6). The assay is described as follows: rBmLDH inhibition (LDH reaction of the coupled assay). Type of assay: biochemical.

Sequences of proteins named here, by UniProt entry; tags and fusion partners are left off. A change or cut given only in a name is not applied to a line headed by its entry.
UniProt A0A1N6LXR4: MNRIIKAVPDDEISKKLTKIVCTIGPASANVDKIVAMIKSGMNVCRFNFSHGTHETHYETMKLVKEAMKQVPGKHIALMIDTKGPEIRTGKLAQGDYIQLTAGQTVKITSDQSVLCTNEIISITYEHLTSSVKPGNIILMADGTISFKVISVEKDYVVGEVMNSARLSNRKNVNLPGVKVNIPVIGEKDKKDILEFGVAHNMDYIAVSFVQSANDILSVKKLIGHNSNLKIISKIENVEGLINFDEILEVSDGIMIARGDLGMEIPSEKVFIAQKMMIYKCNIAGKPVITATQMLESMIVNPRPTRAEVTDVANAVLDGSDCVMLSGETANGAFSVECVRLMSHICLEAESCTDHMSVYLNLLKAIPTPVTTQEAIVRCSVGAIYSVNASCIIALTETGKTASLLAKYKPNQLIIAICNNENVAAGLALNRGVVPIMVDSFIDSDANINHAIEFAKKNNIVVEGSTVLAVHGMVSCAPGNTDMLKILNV
UniProt I7J7V6: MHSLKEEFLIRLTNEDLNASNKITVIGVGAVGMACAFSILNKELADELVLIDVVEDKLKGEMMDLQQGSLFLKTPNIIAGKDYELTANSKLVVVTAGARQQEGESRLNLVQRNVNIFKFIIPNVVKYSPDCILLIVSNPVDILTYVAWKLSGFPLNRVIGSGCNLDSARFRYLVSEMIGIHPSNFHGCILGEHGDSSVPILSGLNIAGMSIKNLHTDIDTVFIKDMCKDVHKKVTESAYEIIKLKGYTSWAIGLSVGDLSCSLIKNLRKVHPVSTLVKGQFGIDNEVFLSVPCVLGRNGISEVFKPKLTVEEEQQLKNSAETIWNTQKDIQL

Usually IC50 stands for the point on the concentration scale where inhibition reaches its midpoint.

Disodium monofluorophosphate: in assay [1], the “effect on the activity of rBmPYKI” value is reported as “no effect”. Further, the IC50 is over 1950 µM in assay [1] (read-out: IC50 rBmPYKI, dash = no effect) and over 1950 µM in assay [2] (read-out: IC50 rBmLDH, dash = LDH reaction not affected / no effect). Moreover, the “effect on rBmLDH / LDH reaction activity” value in assay [2] is on record as “no effect”.
